Compound potency records, mixed from different reports. Data source: NIAID ChemDB in PubChem.

All rows: tests in culture; agent: HIV-1

Blank or dashed fields: not listed here.

| SMILES | cells | changes | endpoint | dose | strain or isolate | method | value |
|---|---|---|---|---|---|---|---|
| CC(C)C1=C2[C@H]3CC[C@@H]4[C@@]5(C)CC[C@H](OC(=O)[C@H]6C[C@@H](C(=O)O)C6(C)C)C(C)(C)[C@@H]5CC[C@@]4(C)[C@]3(C)CC[C@@]2([C@@H](O)CNCC(C)(C)NC(=O)c2ccc(Cl)cc2OC2CCNCC2)CC1=O | MT-2 | - | EC50 | - | 92HT599 | p24 / ELISA | <1 µM |
| CN(C[C@@H](CCN1CCC2(CC1)CS(=O)(=O)c1ccccc12)c1ccc(Cl)c(Cl)c1)S(=O)(=O)c1ccccc1 | PBMC | - | EC95 | - | YU2 | - | <12 µM |
| O=C1Nc2ccc(Cl)cc2[C@@](C#CC2CC2)(C(F)(F)F)N1 | - | RT-K103N | EC90 | - | - | - | 0.01 µM |
| Cc1cc(S(N)(=O)=O)ccc1NC(=O)COc1ccc(Cl)cc1C(=O)c1cccc(C#N)c1 | HeLa + HELA CD4+ | RT-K103N V108I | fold resistance | - | HXB2 | β-galactosidase | ~1 |
| Nc1nc(=O)n([C@H]2C=C[C@@H](CO)O2)cc1F | MT-4 | RT-T69SSS L210W T215Y | EC90 | - | XM-T69SSS | p24 | 8.2 µM |
| Cc1cc2cn[nH]c2cc1NC(=O)COc1ccc(Cl)cc1C(=O)c1cccc(C#N)c1 | HeLa + HELA CD4+ | RT-K101E | fold resistance | - | HXB2 | β-galactosidase | ~1 |
| COc1ccc(S(=O)(=O)N(CC(C)C)C[C@@H](O)CCN(CC2CCCC2)S(=O)(=O)Cc2cncs2)cc1 | CEM | - | EC90 | - | IIIB | p24 | 1 µM |
| Nc1cccc(C(=O)N2CCN(C(=O)C(=O)c3c[nH]c4cccc(F)c34)CC2)c1 | HeLa + HELA CD4+/CCR5 | - | inhibition | 10 µM | - | luciferase | >98% |
| CC(C)C1=C2[C@H]3CC[C@@H]4[C@@]5(C)CC[C@H](OC(=O)[C@H]6C[C@@H](C(=O)O)C6(C)C)C(C)(C)[C@@H]5CC[C@@]4(C)[C@]3(C)CC[C@@]2(CCNCc2ccc(Cl)cc2OCCN2CCS(=O)(=O)CC2)CC1=O | MT-2 | - | EC50 | - | 92HT599 | p24 / ELISA | <1 µM |
| CN1CCN(C(=O)C(=O)N(C)C2COCCn3c2nc(C(=O)NCc2ccc(F)cc2)c(O)c3=O)CC1 | MT-4 | - | EC95 | - | - | p24 | <1 µM |
| O=C1c2c(O)c(=O)n(C34CC5CC(CC(C5)C3)C4)c(=O)n2CCN1Cc1ccc(F)cc1 | MT-4 | - | EC95 | - | - | p24 | <10 µM |
| CC(C)=CCOc1cc(NC(=S)c2ccsc2C)ccc1Cl | CEM + CEM-SS | RT-A98G V108I | fold resistance | - | TIBO R82150-resistant (RT A98G V108I) | cytopathic effect / XTT | 25 |
| COc1cc(C[C@H]2C(=O)OC[C@@H]2Cc2ccc(OC)c(OC)c2)ccc1O | H9 | - | EC80 | - | IIIB | RT activity | 0.05–0.9 µM |
| O=C1[C@@H](Cc2ccccc2)NC(=S)N1Cc1ccccc1 | MT-4 | - | inhibition | 100 µg/mL | - | RT activity | 98% |
| COc1ccc(S(=O)(=O)N(CC(O)CN(Cc2ccccc2)C(=O)O[C@@H]2CCOC2)CC2CCCC2)cc1 | CEM | - | EC90 | - | IIIB | p24 | 1 µM |
| CC(C)[C@H](NC(=O)OCc1ccccn1)C(=O)N[C@@H](Cc1ccccc1)[C@@H](O)C[C@H](Cc1ccccc1)NC(=O)OCc1cccnc1 | MT-4 | PR-L63P | EC95 | - | NL4-3 | p24 | 1.5 µM |
| Cn1ccc(CN2CCn3c(nc(C(=O)NCc4ccc(F)cc4)c(O)c3=O)C23CCOCC3)n1 | MT-4 | - | EC95 | - | - | p24 | <1 µM |
| O=C1Nc2ccc(F)c(F)c2[C@@](C#CC2CC2)(C(F)(F)F)N1 | - | RT-G190S | EC90 | - | - | - | ~0.053 µM |
| O=C(c1ccccc1)N(CCc1ccccc1)C[C@H](O)CN(CC1CCCC1)S(=O)(=O)C1CCCC1 | CEM | - | EC90 | - | IIIB | p24 | 1 µM |
| C[C@H]1CN(C(=O)c2ccccc2)CCN1C(=O)C(=O)c1c[nH]c2c(F)cccc12 | HeLa + HELA CD4+/CCR5 | - | inhibition | 10 µM | - | luciferase | 96% |
| O=C1c2c(O)c(=O)nc(NCc3ccccc3)n2CCN1Cc1ccc(F)cc1 | MT-4 | - | EC95 | - | - | p24 | <10 µM |
| COc1ccc(S(=O)(=O)N(Cc2ccccc2)CC(F)(F)C(=O)[C@@H](Cc2ccccc2)NC(=O)OCc2ccccc2)cc1 | CEM | - | EC90 | - | IIIB | p24 | 1 µM |
| Cc1cc(S(N)(=O)=O)ccc1NC(=O)COc1ccc(Cl)cc1C(=O)c1cc(F)cc(F)c1 | HeLa + HELA CD4+ | RT-K103N L100I | fold resistance | - | HXB2 | β-galactosidase | ~1 |
| Nc1nc(NC2CC2)c2ncn([C@H]3C=C[C@@H](CO)C3)c2n1 | PBMC | RT-T69SSS L210W T215Y | EC90 | - | XM-T69SSS | p24 | 34 µM |
| Cc1cc(CN2CCn3c(nc(C(=O)NCc4ccc(F)cc4)c(O)c3=O)C2(C)C)no1 | MT-4 | - | EC95 | - | - | p24 | <1 µM |
| CC(C)C1=C2[C@H]3CC[C@@H]4[C@@]5(C)CC[C@H](OC(=O)[C@H]6C[C@@H](C(=O)O)C6(C)C)C(C)(C)[C@@H]5CC[C@@]4(C)[C@]3(C)CC[C@@]2(CCNC(=O)c2ccc(Cl)c(Cl)c2)CC1=O | MT-2 | - | EC50 | - | 92HT599 | p24 / ELISA | <1 µM |
| Cc1nc(NC(=O)NCCc2ccccc2)sc1C | MT-4 | - | inhibition | 100 µg/mL | - | cytopathic effect / XTT | 99–100% |
| Nc1ccc(C(=O)N2CCN(C(=O)C(=O)c3c[nH]c4cccc(Cl)c34)CC2)cc1 | HeLa + HELA CD4+/CCR5 | - | inhibition | 10 µM | - | luciferase | 98% |
| CC(C)CC(NS(=O)(=O)c1ccccc1)C(F)(F)C(=O)[C@H](Cc1ccccc1)NC(=O)O[C@H]1CCOC1 | CEM | - | EC90 | - | IIIB | p24 | 1 µM |
| Cc1cc(C#N)cc(C(=O)c2cc(Cl)ccc2OCC(=O)Nc2cnc(S(N)(=O)=O)cc2C)c1 | HeLa + HELA CD4+ | RT-Y181C | fold resistance | - | HXB2 | β-galactosidase | ~1 |
| CCC(=O)c1ccc(F)c([C@@H]2C[C@@H]2NC(=O)Nc2ccc(C#N)cn2)c1O | TZM-bl | NNRTI-resistant (RT V179F) | fold resistance | - | LAI | β-galactosidase / luminescence | 0.1 |
| O=C1c2c(O)c(=O)n(C3CCNCC3)c(=O)n2CCN1Cc1ccc(F)cc1 | MT-4 | - | EC95 | - | - | p24 | <10 µM |
| C[C@H]1CN(C(=O)c2ccccc2)CCN1C(=O)C(=O)c1c[nH]c2c([N+](=O)[O-])cccc12 | HeLa + HELA CD4+/CCR5 | - | inhibition | 10 µM | - | luciferase | 84% |
| COc1c(OCC=C(C)C)cc2oc(=O)ccc2c1O | SupT1 + Sup-T1 | - | EC10 | - | - | MTT | 20 µg/mL |
| Cc1cc(C)cc(C(=O)c2cc(Cl)ccc2OCC(=O)Nc2ccc(S(N)(=O)=O)cc2C)c1 | HeLa + HELA CD4+ | RT-V108I | fold resistance | - | HXB2 | β-galactosidase | ~1 |
| CC(C)C1=C2[C@H]3CC[C@@H]4[C@@]5(C)CC[C@H](OC(=O)[C@H]6C[C@@H](C(=O)O)C6(C)C)C(C)(C)[C@@H]5CC[C@@]4(C)[C@]3(C)CC[C@@]2(CCNCC(C)(C)NC(=O)c2ccc(Cl)cc2OC2CCNCC2)CC1=O | MT-2 | - | EC50 | - | 92HT599 | p24 / ELISA | <1 µM |
| Nc1cccc(S(=O)(=O)N(CC2CCCC2)C[C@@H](O)CN(CCc2ccccc2)C(=O)c2ccncc2)c1 | CEM | - | EC90 | - | IIIB | p24 | 0.1 µM |
| CC(C)C1=C2[C@H]3CC[C@@H]4[C@@]5(C)CC[C@H](OC(=O)[C@H]6C[C@@H](C(=O)O)C6(C)C)C(C)(C)[C@@H]5CC[C@@]4(C)[C@]3(C)CC[C@@]2([C@@H](O)CNCC2(N)CC2)CC1=O | MT-2 | - | EC50 | - | 92HT599 | p24 / ELISA | <1 µM |
| C[C@@H]1CN(C(=O)c2ccccc2)CCN1C(=O)C(=O)c1c[nH]c2cc(Cl)c(Cl)cc12 | HeLa + HELA CD4+/CCR5 | - | inhibition | 10 µM | - | luciferase | 89% |
| C[C@H]1CO[C@@H]2Cn3cc(C(=O)NCc4ccc(F)cc4F)c(=O)c(O)c3C(=O)N12 | CBMC | N155H | fold resistance | - | NL4-3 | RT activity | 2.1 |
| O=C(O)c1cc(-n2cccc2)ccc1Cl | PBMC/5.25M7 | - | EC90 | - | 92US657 R5 CLADE B | luciferase / cell fusion | 99.01 µM |
| C[C@H]1[C@H](O)[C@@H](C)/C=C/C=C/C=C/C=C/C=C/C=C/C=C/[C@H](O[C@@H]2O[C@H](C)[C@@H](O)[C@H](N)[C@@H]2O)C[C@@H]2O[C@](O)(C[C@@H](O)C[C@@H](O)CC[C@H](O)[C@@H](O)C[C@@H](O)CC(=O)O[C@H]1C)C[C@H](O)[C@H]2C(=O)O | PBMC | - | inhibition | 21.2 µM | 93TH073 CLADE E R5 (NSI) | p24 / RT activity | 90% |
| CCOc1ccc2nc(NC(=O)NCCc3ccccc3)sc2c1 | MT-4 | - | inhibition | 100 µg/mL | - | cytopathic effect / XTT | 33% |
| Cc1ccc(-c2ccc3c(c2)C=C(C(=O)Nc2ccc(C[N+](C)(C)C4CCOCC4)cc2)CCC3)cc1 | PBMC | - | inhibition | 1 µM | TB6 CLADE C | p24 | 100% |
| COc1ccnc2[nH]cc(C(=O)C(=O)N3C4CC3CN(C(=O)c3ccccc3)C4)c12 | TZM-bl | - | EC90 | - | 6535 | luciferase | >250 µM |
| C/C=C/CSc1cc(NC(=S)c2ccsc2C)ccc1Cl | CEM + CEM-SS | - | EC50 | - | RF | p24 | 0.1 µM |
| CC(C)C1=C2[C@H]3CC[C@@H]4[C@@]5(C)CC[C@H](OC(=O)[C@H]6C[C@@H](C(=O)O)C6(C)C)C(C)(C)[C@@H]5CC[C@@]4(C)[C@]3(C)CC[C@@]2(CC(=O)NCC(C)(C)NC(=O)CN2CCOCC2)CC1=O | MT-2 | - | EC50 | - | 92HT599 | p24 / ELISA | <1 µM |
| C=CCCCC[C@H](NC(=O)c1cccc(O)c1OCCC=C)[C@H](O)CN(CC(C)C)S(=O)(=O)c1ccc(OC)cc1 | MT-2 | - | EC75 | - | LAI | cytopathic effect / MTT | >1 µM |
| CC(C)=CCOc1cc(NC(=S)c2ccoc2C)ccc1Cl | CEM + CEM-SS | RT-A98G | fold resistance | - | NL4-3 (RT A98G) | cytopathic effect / XTT | 3.33 |
| Cc1c(O)cccc1C(=O)N[C@@H](Cc1ccccc1)[C@H](O)CN1C[C@H]2CCCC[C@H]2C[C@H]1C(=O)NC(C)(C)C | CEM + CEM-SS | - | EC95 | - | HXB2 | cytopathic effect / XTT | 0.135 µM |
| COc1ccc(S(=O)(=O)N(CC(C)C)CC(O)CCN2C[C@H]3CCCC[C@H]3C[C@H]2C(=O)NC(C)(C)C)cc1 | CEM | - | EC90 | - | IIIB | p24 | 1 µM |
| CCCCN1C(=O)[C@@H](Cc2ccccc2)NC1=S | MT-4 | - | inhibition | 100 µg/mL | - | RT activity | 98% |
| Cc1cc(C#N)cc(C(=O)c2cc(Cl)ccc2OCC(=O)Nc2ccc(S(N)(=O)=O)nc2C)c1 | HeLa + HELA CD4+ | RT-Y181C | fold resistance | - | HXB2 | β-galactosidase | ~1 |
| COc1ccc(S(=O)(=O)N(CC(C)C)C[C@@H](O)CCN2CCCC[C@H]2C(=O)NC(C)(C)C)cc1 | CEM | - | EC90 | - | IIIB | p24 | 1 µM |
| CC1c2nc(C(=O)NCc3ccc(F)cc3)c(O)c(=O)n2CCN1Cc1cocn1 | MT-4 | - | EC95 | - | - | p24 | <1 µM |
| COc1ccc(S(=O)(=O)N(CC(C)C)CC(O)CN2CCN(Cc3cccnc3)C[C@H]2C(=O)NC(C)(C)C)cc1 | CEM | - | EC90 | - | IIIB | p24 | 1 µM |
| Fc1cccc(Cl)c1CCNC(=S)Nc1nccs1 | MT-4 | - | inhibition | 100 µg/mL | - | cytopathic effect / XTT | 16–100% |
| O=C(C(=O)N1CCN(C(=O)c2ccc(Cl)cc2S)CC1)c1c[nH]c2cccc(Cl)c12 | HeLa + HELA CD4+/CCR5 | - | inhibition | 10 µM | - | luciferase | >98% |

For reference, 7 entries again:

SMILES | cells | changes | endpoint | dose | strain or isolate | method | value
CC(C)CC(NS(=O)(=O)c1ccccc1)C(F)(F)C(=O)[C@H](Cc1ccccc1)NC(=O)O[C@H]1CCOC1 | CEM | - | EC90 | - | IIIB | p24 | 1 µM
COc1ccnc2[nH]cc(C(=O)C(=O)N3C4CC3CN(C(=O)c3ccccc3)C4)c12 | TZM-bl | - | EC90 | - | 6535 | luciferase | >250 µM
C[C@H]1[C@H](O)[C@@H](C)/C=C/C=C/C=C/C=C/C=C/C=C/C=C/[C@H](O[C@@H]2O[C@H](C)[C@@H](O)[C@H](N)[C@@H]2O)C[C@@H]2O[C@](O)(C[C@@H](O)C[C@@H](O)CC[C@H](O)[C@@H](O)C[C@@H](O)CC(=O)O[C@H]1C)C[C@H](O)[C@H]2C(=O)O | PBMC | - | inhibition | 21.2 µM | 93TH073 CLADE E R5 (NSI) | p24 / RT activity | 90%
COc1ccc(S(=O)(=O)N(CC(O)CN(Cc2ccccc2)C(=O)O[C@@H]2CCOC2)CC2CCCC2)cc1 | CEM | - | EC90 | - | IIIB | p24 | 1 µM
O=C(C(=O)N1CCN(C(=O)c2ccc(Cl)cc2S)CC1)c1c[nH]c2cccc(Cl)c12 | HeLa + HELA CD4+/CCR5 | - | inhibition | 10 µM | - | luciferase | >98%
Cc1cc(C#N)cc(C(=O)c2cc(Cl)ccc2OCC(=O)Nc2cnc(S(N)(=O)=O)cc2C)c1 | HeLa + HELA CD4+ | RT-Y181C | fold resistance | - | HXB2 | β-galactosidase | ~1
O=C1c2c(O)c(=O)n(C34CC5CC(CC(C5)C3)C4)c(=O)n2CCN1Cc1ccc(F)cc1 | MT-4 | - | EC95 | - | - | p24 | <10 µM

ECn is the concentration giving n% inhibition of infection, replication or growth. Neighbouring rows are from separate reports. Inhibition is in % at the dose shown (toxicity tests: loss of growth or viability). Fold resistance has wild type as its base. a–b is a range or a potency band.